Compound potency records, mixed from different reports. Data source: NIAID ChemDB in PubChem.

All rows: growth or infection tests; species: Herpes simplex virus 1

ECn: concentration that inhibits the pathogen or its effect by n%.

SMILES	endpoint	cells	changes	strain	read by	result
CC(C)(C)C(=O)OCOP(=O)(COCCn1cnc2c(N)ncnc21)OCOC(=O)C(C)(C)C	EC50	VERO		KOS	plaque count	1.7 µM
Cc1cn([C@H]2C[C@H](O)[C@@H](CN=[N+]=[N-])O2)c(=O)[nH]c1=O	EC50	BHK			plaque count	>1 µM
NC(=S)c1c(N)n(COCCO)c2ncnc(N)c12	EC50	HFF			ELISA	>100 µM
CC(=O)NC[C@H]1O[C@@H](n2cc(C)c(=O)[nH]c2=O)C[C@@H]1O	EC50	BHK			plaque count	>1.8 µM
Cc1cc2c(C(C)C)c(O)c(O)c(C=O)c2c(O)c1-c1c(C)cc2c(C(C)C)c(O)c(O)c(C=O)c2c1O	EC50	HeLa		KOS	cytopathic effect	>100 µM
Nc1nc2c(ncn2COCCO)c(=O)[nH]1	EC50	VERO		KOS	cytopathic effect	46 µg/mL
Nc1nc2c(ncn2COC(CO)CO)c(=O)[nH]1	EC50	VERO				<1 µM
CCC(=O)NC[C@H]1O[C@@H](n2cc(I)c(=O)[nH]c2=O)C[C@@H]1O	EC50	BHK			plaque count	>1 µM
CCCCCCCCCCCC(=O)OC[C@@H](O)COP(=O)([O-])OCC[N+](C)(C)C	EC50	HeLa		KOS	cytopathic effect	>200 µg/mL
NC(=O)c1c(N)n(COCCO)c2ncnc(N)c12	EC50	HFF			ELISA	>100 µM
Nc1nccc2c1ncn2[C@@H]1C[C@H](CO)[C@@H](O)[C@H]1O	EC50	PRK		KOS	cytopathic effect	>400 µg/mL
COc1cc(O)c(CC=C(C)C)c2c1C(=O)CC(c1ccc(O)cc1)O2	EC50	VERO			cytopathic effect	>62 µg/mL
CC(=O)c1cn(C/C=C/C(O)CO)c(=O)[nH]c1=O	EC90	VERO		F	plaque count	>100 µM
Nc1nc2c(ncn2CCC(CO)CO)c(=O)[nH]1	EC50	VERO		KOS	cytopathic effect	>100 µg/mL
CCCCCc1ccc(C#Cc2cn(C/C=C/C(O)CO)c(=O)[nH]c2=O)cc1	EC50	VERO		F	plaque count	8.5 µM
C[C@H](NP(=O)(N[C@@H](C)C(=O)OC(C)(C)C)OC[C@H]1O[C@@H](n2cnc(C(N)=O)c2N)[C@H](O)[C@@H]1O)C(=O)OC(C)(C)C	EC50	HEL	TK-	KOS	cytopathic effect	>100 µM
NC(=O)c1cn([C@@H]2O[C@H](CO)[C@@H](O)[C@@H]2O)c2ncnc(N)c12	EC50	BSC-1		S-148	plaque count	16 µM
Cc1cn([C@@H]2C[C@@H](O)[C@H](CO)O2)c(=O)[nH]c1=O	EC50	HFF				>200 µM
CCCCCCCCc1cc2cn(CC=C(CO)CO)c(=O)nc2o1	EC90	VERO		F	plaque count	53.8 µM
N#Cc1c(Br)n(COCCO)c2ncnc(N)c12	EC50	HFF			ELISA	>100 µM
CCCCCCCCCCCCCCCC(=O)O	EC50	HeLa		KOS	cytopathic effect	>200 µg/mL
Nc1ncnc2c1ccn2[C@@H]1O[C@H](CO)[C@@H](O)[C@@H]1O	EC50	BSC-1		S-148	plaque count	320 µM
C=C(C)[C@@H]1CC[C@]2(CO)CC[C@]3(C)[C@H](CC[C@@H]4[C@@]5(C)CC[C@H](O)C(C)(C)[C@@H]5CC[C@]43C)[C@@H]12	EC50	HeLa		KOS	cytopathic effect	>200 µg/mL
Nc1ccn([C@@H]2C[C@@H](O)[C@H](CO)O2)c(=O)n1	EC50	HFF				>20 µM
C[C@H]1C[C@@H](n2cnc3c(N)ncnc32)[C@H](O)[C@@H]1O	EC50	E6SM		B2006 (TK-)	cytopathic effect	10 µg/mL
NC(=O)c1c[se]c([C@@H]2O[C@H](CO)[C@@H](O)[C@H]2O)n1	EC50	VERO		KOS	cytopathic effect	30 µg/mL
CC(=O)O[C@H]1C[C@H](n2cc(I)c(=O)[nH]c2=O)O[C@@H]1CN=[N+]=[N-]	EC50	BHK			plaque count	>1 µM
CCCCCc1ccc(-c2cc3cn(COCCO)c(=O)nc3o2)cc1	EC90	VERO		F	plaque count	>100 µM
NC(=O)c1ncn([C@@H]2O[C@H](CO)[C@@H](O)[C@H]2O)c1C#Cc1ccccc1	EC50	PRK		KOS	cytopathic effect	>400 µg/mL
Nc1nc2c(ncn2COCCO)c(=O)[nH]1	EC50	BSC-1		MAYO 1814	cytopathic effect	0.15 µg/mL
CC(=O)c1cn(CC=C(CO)CO)c(=O)[nH]c1=O	EC90	VERO		F	plaque count	>100 µM
NC(=O)O[C@@H]1[C@@H](O)[C@H](O)[C@H](NC(=O)[C@@H]2CCC(N)=N2)[C@H](O)[C@H]1O[C@@H]1O[C@H](CO)[C@@H](O[C@H]2O[C@H](CO)[C@@H](O)[C@H](O)[C@H]2NC(=O)[C@@H](N)CCCN=C(N)N)[C@H](O)[C@@H]1O	EC50	HeLa		KOS	cytopathic effect	>200 µg/mL
CC(C)CC(=O)NC[C@H]1O[C@@H](n2cc(I)c(=O)[nH]c2=O)C[C@@H]1O	EC50	BHK			plaque count	>0.5 µM
Cc1ccc(C(=O)Nc2ccc(S(=O)(=O)O)c3cc(S(=O)(=O)O)cc(S(=O)(=O)O)c23)cc1NC(=O)c1cccc(NC(=O)Nc2cccc(C(=O)Nc3cc(C(=O)Nc4ccc(S(=O)(=O)O)c5cc(S(=O)(=O)O)cc(S(=O)(=O)O)c45)ccc3C)c2)c1	EC50	HeLa		KOS	cytopathic effect	17 µM
CCCCCCCCC#Cc1cn(CC=C(CO)CO)c(=O)[nH]c1=O	EC90	VERO		F	plaque count	>100 µM
NC(=S)c1c(N)n(COC(CO)CO)c2ncnc(N)c12	EC50	HFF			ELISA	>100 µM
NC(=O)c1ncn([C@@H]2O[C@H](CO)[C@@H](O)[C@H]2O)c1C#CCO	EC50	PRK		KOS	cytopathic effect	>400 µg/mL
NC[C@@H]1O[C@H](O[C@H]2[C@@H](O)[C@H](O[C@@H]3[C@@H](O)[C@H](N)C[C@H](N)[C@H]3O[C@H]3O[C@H](CO)[C@@H](O)[C@H](O)[C@H]3N)O[C@@H]2CO)[C@H](N)[C@@H](O)[C@@H]1O	EC50	HeLa		KOS	cytopathic effect	>200 µg/mL
NC(=O)c1ncn([C@@H]2O[C@H](CO)[C@@H](O)[C@H]2O)c1C#CCCO	EC50	PRK		KOS	cytopathic effect	>400 µg/mL
CCCCCC#Cc1cn(COCCO)c(=O)[nH]c1=O	EC50	VERO		F	plaque count	>100 µM
CC[C@H]1OC(=O)[C@H](C)[C@@H](O)[C@H](C)[C@@H](O)[C@](C)(O)C[C@@H](C)C(=O)[C@H](C)[C@@H](O)[C@H]1C	EC50	HeLa		KOS	cytopathic effect	>200 µg/mL
NC(=O)c1cc2ccncc2c2sc3ccccc3c12	EC50	MRC-5		MCRAE	cytopathic effect	0.08 µg/mL
N#Cc1c(Br)n(COC(CO)CO)c2ncnc(N)c12	EC50	HFF			ELISA	>100 µM
CCOC(=O)NC[C@H]1O[C@@H](n2cc(I)c(=O)[nH]c2=O)C[C@@H]1O	EC50	BHK			plaque count	>0.2 µM

A second listing of 6 rows from above:

SMILES | endpoint | cells | changes | strain | read by | result
Cc1cn([C@@H]2C[C@@H](O)[C@H](CO)O2)c(=O)[nH]c1=O | EC50 | HFF |  |  |  | >200 µM
CCCCCCCCCCCCCCCC(=O)O | EC50 | HeLa |  | KOS | cytopathic effect | >200 µg/mL
CC(=O)c1cn(CC=C(CO)CO)c(=O)[nH]c1=O | EC90 | VERO |  | F | plaque count | >100 µM
Nc1nccc2c1ncn2[C@@H]1C[C@H](CO)[C@@H](O)[C@H]1O | EC50 | PRK |  | KOS | cytopathic effect | >400 µg/mL
C=C(C)[C@@H]1CC[C@]2(CO)CC[C@]3(C)[C@H](CC[C@@H]4[C@@]5(C)CC[C@H](O)C(C)(C)[C@@H]5CC[C@]43C)[C@@H]12 | EC50 | HeLa |  | KOS | cytopathic effect | >200 µg/mL
Nc1nc2c(ncn2COCCO)c(=O)[nH]1 | EC50 | BSC-1 |  | MAYO 1814 | cytopathic effect | 0.15 µg/mL

Lines come from different laboratories, so protocols vary. An empty or dashed field is not shown.